# PubChem BioAssay AID624099 | ICCB-Longwood | 2012
# Assay: 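Host factors E2 relies on to silence an HPV18 LCR reporter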 (primary screen)
# Cells: human C33A cervical carcinoma cells (HPV-negative) stably expressing BPV1 E2 and an HPV18 LCR luciferase reporter
# Reagent: siRNA pool against human genes, 40 nM
# Duration: 72 h
# Measured: 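Per-well luciferase luminescence, z-scored on each plate against the plate mean and SD with control wells left out, then averaged across three replicate plates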
# Direction: mean z-score and z-score: higher = stronger reporter signal, weaker E2 silencing
# Hit rule: 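Hit if mean z-score reaches 2 and two or more of three replicate z-scores also reach 2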
# Here is one part, drawn at random, of about 21,000 deposited reagents. 497 of all reagents (2.4%) count as active. 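Higher z means weaker E2 silencing; only reporter increases were scored, and knock-downs that hurt cell survival may mask genuine repressor factors.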 The numbers tell different reagents against one gene apart.
Target gene,reagent,mean z-score,"z-score, replicate A","z-score, replicate B","z-score, replicate C",activity call
FAM3D (GeneID 131177),1,-1.37,-1.11,-1.63,-1.37,inactive
FCN1 (GeneID 2219),1,1.05,0.85,1.39,0.91,inactive
COP1 (GeneID 64326),1,0.3,0.28,0.13,0.5,inactive
IMPA2 (GeneID 3613),1,-0.81,-1.03,-0.7,-0.7,inactive
ORAI3 (GeneID 93129),1,0.06,-0.03,-0.1,0.3,inactive
IL7R (GeneID 3575),1,0.37,0.41,0.3,0.39,inactive
SNN (GeneID 8303),1,-0.83,-0.86,-0.71,-0.94,inactive
DZANK1 (GeneID 55184),1,-0.01,0.04,-0.01,-0.06,inactive
PIH1D2 (GeneID 120379),1,1.33,1.41,1.6,0.98,inactive
FAM181A (GeneID 90050),1,0.89,1.16,0.59,0.93,inactive
TIPIN (GeneID 54962),1,-0.16,-0.44,-0.09,0.03,inactive
RTL1 (GeneID 388015),1,-0.24,-0.3,-0.31,-0.12,inactive
RAB34 (GeneID 83871),1,-0.19,-0.53,-0.04,-0.01,inactive
HSD17B3 (GeneID 3293),1,-1.33,-0.89,-1.35,-1.74,inactive
CYP4B1 (GeneID 1580),1,0.84,0.97,0.95,0.61,inactive
APOA5 (GeneID 116519),1,1.38,1.32,1.39,1.44,inactive
MARK3 (GeneID 4140),1,1.16,0.82,1.41,1.24,inactive
CTCF (GeneID 10664),1,-1.14,-1.29,-1.18,-0.96,inactive
SHE (GeneID 126669),1,-0.67,-1.06,-0.86,-0.09,inactive
FREM2 (GeneID 341640),1,0.47,0.42,0.7,0.29,inactive
FST (GeneID 10468),1,0.49,0.52,0.49,0.46,inactive
ATG4B (GeneID 23192),1,0.88,0.78,0.67,1.18,inactive
RPS15P9 (GeneID 401895),1,0.81,1.16,0.55,0.72,inactive
RHPN2 (GeneID 85415),1,-0.26,-0.1,-0.46,-0.23,inactive
RGS8 (GeneID 85397),1,0.07,0.24,-0.14,0.1,inactive
TGM5 (GeneID 9333),1,-0.9,-1.13,-0.81,-0.77,inactive
ZNF793 (GeneID 390927),1,0.62,0.74,0.52,0.6,inactive
SKP2 (GeneID 6502),1,-0.65,-0.65,-0.55,-0.74,inactive
MSTN (GeneID 2660),1,-0.6,-0.47,-0.59,-0.72,inactive
GK (GeneID 2710),1,0.05,0,0.18,-0.02,inactive
LEMD3 (GeneID 23592),1,-0.5,-0.57,-0.74,-0.17,inactive
TEFM (GeneID 79736),1,0,0.15,-0.21,0.07,inactive
IL11 (GeneID 3589),1,0.99,1,1.09,0.88,inactive
BTBD8 (GeneID 284697),1,-0.62,-0.54,-0.83,-0.5,inactive
BTBD8 (GeneID 284697),2,-1.47,-1.64,-1.54,-1.23,inactive
PTRH2 (GeneID 51651),1,-0.36,-0.04,-0.44,-0.59,inactive
LOC402251 (retired record) (GeneID 402251),1,0.23,0.23,0.09,0.36,inactive
IGFBP6 (GeneID 3489),1,-0.8,-0.16,-1.49,-0.74,inactive
PCDHB16 (GeneID 57717),1,0.52,0.89,0.8,-0.12,inactive
SORBS1 (GeneID 10580),1,-1.25,-1.46,-1.38,-0.91,inactive
HPGD (GeneID 3248),1,0.59,0.48,0.49,0.79,inactive
WIF1 (GeneID 11197),1,-0.03,-0.17,0.17,-0.08,inactive
TMEM126B (GeneID 55863),1,-0.27,-0.37,-0.37,-0.05,inactive
SSH3 (GeneID 54961),1,-0.37,-0.52,-0.33,-0.24,inactive
S100A8 (GeneID 6279),1,2.1,2.44,2.15,1.71,active
LOC388107 (retired record) (GeneID 388107),1,0.01,0.18,0.06,-0.19,inactive
LOC151261 (retired record) (GeneID 151261),1,0.58,0.33,0.39,1.02,inactive
CDC26 (GeneID 246184),1,-0.91,-0.65,-0.87,-1.2,inactive
SPSB4 (GeneID 92369),1,0.88,1.26,0.82,0.55,inactive
ENPEP (GeneID 2028),1,0.51,0.68,0.32,0.53,inactive
LRIG2 (GeneID 9860),1,-1.16,-1.13,-1.08,-1.27,inactive
HORMAD1 (GeneID 84072),1,1,0.98,1.25,0.78,inactive
RPL22 (GeneID 6146),1,1.26,1.15,1.26,1.38,inactive
MPZL2 (GeneID 10205),1,0.1,0.06,0.04,0.19,inactive
PTAFR (GeneID 5724),1,0,0.17,0.34,-0.5,inactive
SLC26A8 (GeneID 116369),1,0.88,1.03,0.52,1.09,inactive
CD14 (GeneID 929),1,-0.19,-0.05,-0.18,-0.34,inactive

An excerpt from above, reduced to “z-score, replicate B”.
APOA5 (GeneID 116519): 1.39
MARK3 (GeneID 4140): 1.41
